Anti-infective test results gathered from many reports (values: NIAID ChemDB through PubChem).

Neighbouring rows are from separate reports. Percent inhibition refers to the dose given; in toxicity tests it is the harm to the cells. MIC bound: limit read from a one-dose screen. CCn is the concentration with n% toxicity to the cells. Blank or dashed fields: not listed here. ECn is the concentration giving n% inhibition of infection, replication or growth. Zone: diameter of growth inhibition. ICn is the concentration giving n% inhibition.

| structure | method | dose | kind | measure | protein | cell line | conditions | species | strain | value |
|---|---|---|---|---|---|---|---|---|---|---|
| Cc1cn([C@H]2C[C@H](F)[C@@H](CO)O2)c(=O)[nH]c1=O | RT activity |  | culture | EC50 |  | MT-4 |  | HIV-1 |  | 0.008 µM |
| O=C1OP(=O)(Cl)Oc2ccccc21 | resazurin | 6.25 µg/mL | culture | inhibition |  |  |  | Mycobacterium tuberculosis | H37Rv | -5% |
| Cc1cn([C@H]2C[C@H](N=[N+]=[N-])[C@@H](COP(=O)(O)F)O2)c(=O)[nH]c1=O |  |  | culture | EC50 |  | CEM + CEM-SS |  | HIV-1 | IIIB | 0.005 µM |
| Cc1ccc(NCCCl)c2c(=O)c3ccccc3sc12 | BACTEC |  | culture | MIC bound |  |  |  | Mycobacterium tuberculosis | H37Rv | >12.5 µg/mL |
| O=[N+]([O-])c1ccc(-n2cnc([N+](=O)[O-])n2)c([N+](=O)[O-])c1 |  |  | toxicity | CC50 |  | VERO |  |  |  | 0.39 µg/mL |
| O=C(Nc1ncc([N+](=O)[O-])s1)c1cc([N+](=O)[O-])cc([N+](=O)[O-])c1 | BACTEC | 12.5 µg/mL | culture | inhibition |  |  |  | Mycobacterium tuberculosis | H37Rv | -7% |
| Cn1c(=O)c([N+](=O)[O-])cn(-c2ccc([N+](=O)[O-])cc2[N+](=O)[O-])c1=O |  | 6.25 µg/mL | culture | inhibition |  |  |  | Mycobacterium tuberculosis |  | <90% |
| Nc1cc([As]=O)ccc1O |  |  | toxicity | CC50 |  | MT-2 |  |  |  | 0.42 µg/mL |
| ClP(Oc1ccccc1)Oc1ccccc1 |  |  | culture | MIC |  |  |  | Mycobacterium tuberculosis | H37Rv | >100 µg/mL |
| C(/C=C/c1ccccc1)=NCCNCCN=C/C=C/c1ccccc1.[N-]=[N+]=[N][Hg][N]=[N+]=[N-] | agar diffusion | 30000 µg/mL | culture | zone |  |  |  | Aspergillus niger |  | 39 mm |
| Cc1cn([C@H]2C[C@H](N=[N+]=[N-])[C@@H](CO)O2)c(=O)[nH]c1=O | XTT |  | toxicity | CC50 |  | MT-4 |  |  |  | 154 µM |
| CN(C)C(=O)Oc1cccn(C)c1=O | resazurin | 6.25 µg/mL | culture | inhibition |  |  |  | Mycobacterium tuberculosis | H37Rv | 49% |
| Cc1c([N+](=O)[O-])cc([N+](=O)[O-])c2oc3ccc([N+](=O)[O-])cc3c(=O)c12 |  |  | culture | MIC |  |  |  | Mycobacterium avium | SN 304 | >32 µg/mL |
| O=[As](O)(O)c1ccccc1O |  |  | culture | MIC |  |  |  | Mycobacterium tuberculosis | H37Rv | >100 µg/mL |
| NC(=NCCC[C@H](N)C(=O)O)NP(=O)(O)O | cytopathic effect |  | culture | EC50 |  | HeLa |  | Herpes simplex virus 1 | KOS | >200 µg/mL |
| O=[N+]([O-])c1cc(Cn2nnc(-c3cc([N+](=O)[O-])cc([N+](=O)[O-])c3)n2)cc([N+](=O)[O-])c1 |  |  | culture | MIC |  |  | 7 d | Mycobacterium kansasii | 6509/96 | 2 µM |
| Cc1cn([C@H]2C[C@H](F)[C@@H](CO)O2)c(=O)[nH]c1=O | RT activity |  | culture | EC50 |  | MT-4 |  | HIV-1 |  | 0.008 µM |
| O=[N+]([O-])c1ccc(S(=O)(=O)c2ccc([N+](=O)[O-])cc2[N+](=O)[O-])c([N+](=O)[O-])c1 | strand transfer |  | target | IC50 | Integrase |  |  | HIV-1 |  | 76.5 µM |
| C=CP(=O)(O)OC[C@H]1O[C@@H](n2cc(C)c(=O)[nH]c2=O)C[C@@H]1F | trypan blue |  | toxicity | CC50 |  | H9 |  |  |  | >100 µM |
| CSP1(SC)=NP(Cl)(Cl)=NP(Cl)(Cl)=N1 | BACTEC |  | culture | MIC |  |  |  | Mycobacterium tuberculosis | H37Rv | 128 µg/mL |
| O=c1ccn([C@H]2CC[C@@H](CO)O2)c(=O)[nH]1 | p24 |  | culture | EC50 |  | PBMC |  | HIV-1 |  | 100 µM |
| NP1(N)=NP(Cl)(Cl)=NP(Cl)(Cl)=N1 | BACTEC |  | culture | MIC |  |  |  | Mycobacterium tuberculosis | H37Rv | ≥128 µg/mL |
| CCCC[As](=O)(O)O |  |  | culture | MIC |  |  |  | Mycobacterium tuberculosis | H37Rv | >100 µg/mL |
| Cc1cn([C@H]2C=C[C@@H](CO)O2)c(=O)[nH]c1=O | XTT |  | toxicity | CC50 |  | PBMC |  |  |  | 349 µM |
| N#Cc1c(SCCBr)nsc1-c1ccccc1 | plaque count |  | culture | EC50 |  | HEP-2 |  | Adenovirus | TYPE 2 | >25 µg/mL |
| NC(=NCCN1CCN=C1N[N+](=O)[O-])N[N+](=O)[O-] | resazurin | 6.25 µg/mL | culture | inhibition |  |  |  | Mycobacterium tuberculosis | H37Rv | -6% |
| Cc1cn([C@H]2C[C@H](F)[C@@H](COP(=O)(O)C(F)F)O2)c(=O)[nH]c1=O | p24 |  | culture | EC50 |  | H9 |  | HIV-1 |  | 8 µM |
| CC1COP(N(C(C)C)C(C)C)O1 | resazurin | 6.25 µg/mL | culture | inhibition |  |  |  | Mycobacterium tuberculosis | H37Rv | 16% |
| Nc1ncnc2c1ncn2[C@H]1CC[C@@H](CO)O1 |  |  | toxicity | CC50 |  | MT-4 |  |  |  | 1493 µM |
| ClP1(Cl)=NP(Cl)(Cl)=NP(Cl)(Cl)=N1 | BACTEC | 128 µg/mL | culture | inhibition |  |  |  | Mycobacterium tuberculosis | H37Rv | 68% |
| Nc1cc([As](=O)(O)O)ccc1O |  |  | culture | MIC |  |  |  | Mycobacterium tuberculosis | H37Rv | >100 µg/mL |
| CCN(CC)P1OCC(C)O1 | resazurin |  | culture | MIC bound |  |  |  | Mycobacterium tuberculosis | H37Rv | >6.25 µg/mL |
| CCOC(=O)P(=O)(O)OC[C@H]1O[C@@H](n2cc(C)c(=O)[nH]c2=O)C[C@@H]1F | p24 |  | culture | EC50 |  | H9 |  | HIV-1 |  | 30 µM |
| CC1=NO[C@@]2(CC[C@H](C)N3C[C@H]2n2cc(C(=O)NCc4ccc(F)cc4F)c(=O)c(OC(=O)N(C)Cc4ccc(OP(=O)(O)O)cc4)c2C3=O)C1 | luminescence |  | toxicity | CC50 |  | MT-4 |  |  |  | 50 µM |
| O=c1c2ccccc2c(=O)n2n1P(Cl)CP2Cl | BACTEC |  | culture | MIC bound |  |  |  | Mycobacterium tuberculosis | H37Rv | >12.5 µg/mL |

5 of the rows above, restated:

structure	method	dose	kind	measure	protein	cell line	conditions	species	strain	value
Cc1cn([C@H]2C[C@H](F)[C@@H](COP(=O)(O)C(F)F)O2)c(=O)[nH]c1=O	p24		culture	EC50		H9		HIV-1		8 µM
CN(C)C(=O)Oc1cccn(C)c1=O	resazurin	6.25 µg/mL	culture	inhibition				Mycobacterium tuberculosis	H37Rv	49%
C=CP(=O)(O)OC[C@H]1O[C@@H](n2cc(C)c(=O)[nH]c2=O)C[C@@H]1F	trypan blue		toxicity	CC50		H9				>100 µM
N#Cc1c(SCCBr)nsc1-c1ccccc1	plaque count		culture	EC50		HEP-2		Adenovirus	TYPE 2	>25 µg/mL
Cc1c([N+](=O)[O-])cc([N+](=O)[O-])c2oc3ccc([N+](=O)[O-])cc3c(=O)c12			culture	MIC				Mycobacterium avium	SN 304	>32 µg/mL